# Structure probing of HIV-1 leader RNA with DMS

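Randomly mutated transcripts starting with one, two or three G (1G, 2G, 3G), capped or uncapped, were folded for 30 min at 37 °C. Monomer and dimer bands were cut from native gels after folding in high salt (300 mM KCl, 5 mM MgCl2) or low salt (40 mM KCl, 0.1 mM MgCl2). Each band was probed in the gel with DMS (170 mM, 15 min, 37 °C), with ethanol as control, and sequenced.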

Sequence of the HIV-1 NL4-3 5' RNA, positions 1 to 437, as numbered in the source:
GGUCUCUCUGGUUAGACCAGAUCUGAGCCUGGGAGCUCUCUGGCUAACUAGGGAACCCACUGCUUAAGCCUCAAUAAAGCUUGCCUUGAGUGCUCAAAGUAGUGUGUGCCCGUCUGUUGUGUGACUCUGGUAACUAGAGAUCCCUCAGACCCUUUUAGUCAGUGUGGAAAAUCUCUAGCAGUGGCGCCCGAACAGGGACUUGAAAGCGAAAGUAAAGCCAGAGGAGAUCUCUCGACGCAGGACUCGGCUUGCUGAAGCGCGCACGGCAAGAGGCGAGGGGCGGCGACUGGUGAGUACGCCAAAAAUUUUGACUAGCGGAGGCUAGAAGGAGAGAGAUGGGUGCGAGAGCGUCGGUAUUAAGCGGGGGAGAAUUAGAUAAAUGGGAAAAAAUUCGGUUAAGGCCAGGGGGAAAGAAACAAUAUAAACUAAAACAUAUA

Scale: normalised reactivity, A and C only; low values point to paired or protected bases, higher values to unpaired ones. One numbering serves 1G, 2G and 3G. A position is written with its base.

position,1G capped high-salt monomer,3G capped high-salt monomer
A21,0.57,0.59
C38,0.04,0.02
A46,0.05,0.02
A47,0.17,0.11
A54,0.18,0.13
C57,0.68,0.02
A59,0.42,0.82
A66,1.00,0.85
A67,0.64,0.94
C70,0.04,0.05
A73,0.04,0.04
A77,0.79,0.75
A78,0.74,0.92
C80,0.39,0.29
A89,0.53,0.83
C93,0.04,0.04
A101,0.18,0.30
C109,0.21,0.07
C110,0.21,0.12
A124,1.01,1.32
A133,1.52,1.54
C143,0.04,0.02
C144,0.04,0.02
C151,0.79,0.86
C173,0.04,0.02
C175,0.04,0.02
C185,0.43,0.52
A192,0.81,0.87
A194,1.00,1.14
A203,0.51,0.52
A205,0.32,0.31
A209,0.48,0.46
A214,0.26,0.26
A216,0.52,0.61
C218,0.04,0.02
A222,0.28,0.24
A225,0.78,0.81
A227,0.25,0.33
C258,0.36,0.33
C264,0.39,0.45
A268,0.33,0.26
A269,0.53,0.48
C274,0.59,0.71
C281,0.43,0.37
C284,0.19,0.22
C287,0.32,0.33
C299,0.07,0.14
A301,0.24,0.25
A311,1.19,1.21
C312,0.11,0.12
A319,0.86,0.83
C322,0.04,0.02
A345,1.22,1.27
A360,0.42,0.54
A376,0.74,0.76
A378,0.23,0.24
A385,0.52,0.55
A387,0.24,0.24
C393,0.67,0.62
A398,0.22,0.14
C403,0.04,0.02
A415,0.24,0.21
A418,0.67,0.68
A419,0.49,0.50
A421,0.38,0.38
A428,0.10,0.12
A431,0.62,0.61

The measurements come from Ye et al. 2022 (doi:10.1038/s41594-022-00746-2).